Source: paper PMC8953592, “Mechanism of Action and Therapeutic Potential of the β-Hairpin Antimicrobial Peptide Capitellacin from the Marine Polychaeta Capitella teleta” (Marine Drugs, 2022)

Experiments:
Assay in all cases: MIC, two-fold serial dilutions
Conditions in all cases: MH medium with 0.9% NaCl, 0.1% BSA, 5 × 10^5 CFU/mL, 37 °C, 24 h
A. baumanii CI 2675 = system: A. baumanii CI 2675
E. cloacae CI 4172 = system: E. cloacae CI 4172
E. coli ATTC 25922 = system: E. coli ATTC 25922
E. coli CI 214 = system: E. coli CI 214
E. coli CI 3600 = system: E. coli CI 3600
E. coli ML-35p = system: E. coli ML-35p
K. pneumonia ATCC 700603 = system: K. pneumonia ATCC 700603
P. aeruginosa PAO1 = system: P. aeruginosa PAO1
[1] = system: Staphylococcus aureus 209P
E. coli BW25113 = system: E. coli BW25113
E. coli MDR CI 1057 = system: E. coli MDR CI 1057

Row | SMILES | Minimum Inhibitory Concentration (A. baumanii CI 2675) [µM] | Minimum Inhibitory Concentration (E. cloacae CI 4172) [µM] | Minimum Inhibitory Concentration (E. coli ATTC 25922) [µM] | Minimum Inhibitory Concentration (E. coli CI 214) [µM] | Minimum Inhibitory Concentration (E. coli CI 3600) [µM] | Minimum Inhibitory Concentration (E. coli ML-35p) [µM] | Minimum Inhibitory Concentration (K. pneumonia ATCC 700603) [µM] | Minimum Inhibitory Concentration (P. aeruginosa PAO1) [µM] | Minimum Inhibitory Concentration [1] [µM] | Minimum Inhibitory Concentration (E. coli BW25113) [µM] | Minimum Inhibitory Concentration (E. coli MDR CI 1057) [µM]
1 | CC[C@H](C)[C@@H]1NC(=O)[C@@H](NC(=O)[C@@H](NC(=O)[C@H](CCCNC(=N)N)NC(=O)[C@@H]2CCCN2C(=O)[C@H](CO)NC(=O)[C@@H](N)CCCNC(=N)N)C(C)C)CSSC[C@@H](C(=O)N[C@@H](Cc2c[nH]c3ccccc23)C(=O)NCC(=O)O)NC(=O)[C@H](CCCNC(=N)N)NC(=O)[C@H](CCCNC(=N)N)NC(=O)[C@H](Cc2ccc(O)cc2)NC(=O)[C@@H]2CSSC[C@H](NC(=O)[C@H](C(C)C)NC(=O)[C@H](CCCNC(=N)N)NC1=O)C(=O)N[C@@H](CCCNC(=N)N)C(=O)N[C@@H](CC(N)=O)C(=O)NCC(=O)N[C@@H](C(C)C)C(=O)N2 [CT2] | 0.125 | 2 | 0.25 | 0.25 | 0.25 | 0.25 | 2 | 1 | 4 |  | 
2 | CC[C@H](C)[C@@H]1NC(=O)[C@@H](NC(=O)[C@@H](NC(=O)[C@H](CCCNC(=N)N)NC(=O)[C@@H]2CCCN2C(=O)[C@@H](N)CO)C(C)C)CSSC[C@@H](C(=O)N[C@@H](Cc2c[nH]c3ccccc23)C(=O)O)NC(=O)[C@H](CCCNC(=N)N)NC(=O)[C@H](CCCNC(=N)N)NC(=O)[C@H](Cc2ccc(O)cc2)NC(=O)[C@@H]2CSSC[C@H](NC(=O)[C@H](C(C)C)NC(=O)[C@H](CCCNC(=N)N)NC1=O)C(=O)N[C@@H](CCCNC(=N)N)C(=O)N[C@@H](CC(N)=O)C(=O)NCC(=O)N[C@@H](C(C)C)C(=O)N2 [CT3] | 0.25 | 8 | 0.5 | 1 | 0.5 | 0.5 | 4 | 2 | 8 |  | 
3 | CC[C@H](C)[C@@H]1NC(=O)[C@@H](NC(=O)[C@@H](NC(=O)[C@@H](N)CCCNC(=N)N)C(C)C)CSSC[C@@H](C(=O)N[C@@H](Cc2c[nH]c3ccccc23)C(=O)O)NC(=O)[C@H](CCCNC(=N)N)NC(=O)[C@H](CCCNC(=N)N)NC(=O)[C@H](Cc2ccc(O)cc2)NC(=O)[C@@H]2CSSC[C@H](NC(=O)[C@H](C(C)C)NC(=O)[C@H](CCCNC(=N)N)NC1=O)C(=O)N[C@@H](CCCNC(=N)N)C(=O)N[C@@H](CC(N)=O)C(=O)NCC(=O)N[C@@H](C(C)C)C(=O)N2 [CT4] | 0.125 | 4 | 0.5 | 0.5 | 0.25 | 0.25 | 2 | 1 | 4 |  | 
4 | CC(C)[C@@H]1NC(=O)CNC(=O)[C@H](CC(N)=O)NC(=O)[C@H](CCCNC(=N)N)NC(=O)[C@@H]2CSSC[C@H](NC1=O)C(=O)N[C@@H](Cc1ccc(O)cc1)C(=O)N[C@@H](CCCNC(=N)N)C(=O)N[C@@H](CCCNC(=N)N)C(=O)N[C@H](C(=O)N[C@@H](Cc1c[nH]c3ccccc13)C(=O)O)CSSC[C@H](NC(=O)[C@@H](NC(=O)[C@@H](N)CCCNC(=N)N)C(C)C)C(=O)N[C@@H](Cc1ccccc1)C(=O)N[C@@H](CCCNC(=N)N)C(=O)N[C@@H](C(C)C)C(=O)N2 [CT6] | 0.25 | 2 | 0.25 | 0.25 | 0.25 | 0.25 | 2 | 2 | 4 |  | 
5 | CC[C@H](C)[C@@H]1NC(=O)[C@@H](NC(=O)[C@@H](NC(=O)[C@H](CCCNC(=N)N)NC(=O)[C@@H]2CCCN2C(=O)[C@@H](N)CO)C(C)C)CSSC[C@@H](C(=O)N[C@@H](Cc2c[nH]c3ccccc23)C(=O)NCC(=O)O)NC(=O)[C@H](CCCNC(=N)N)NC(=O)[C@H](CCCNC(=N)N)NC(=O)[C@H](Cc2ccc(O)cc2)NC(=O)[C@@H]2CSSC[C@H](NC(=O)[C@H](C(C)C)NC(=O)[C@H](CCCNC(=N)N)NC1=O)C(=O)N[C@@H](CCCNC(=N)N)C(=O)N[C@@H](CC(N)=O)C(=O)NCC(=O)N[C@@H](C(C)C)C(=O)N2 [Cap, capitellacin] | 0.25 | 4 | 0.5 | 1 | 0.5 | 0.5 | 4 | 2 | 8 | 0.5 | 0.5
